From ChEMBL document CHEMBL1141519, “Pyrogallol and its analogs can antagonize bacterial quorum sensing in Vibrio harveyi” (Bioorg Med Chem Lett, 2008) come the findings set out here.

The chains behind the UniProt entries cited, without tags or fusion partners. Residues count along the entry.
UniProt P54300, 24-365 limits assumed: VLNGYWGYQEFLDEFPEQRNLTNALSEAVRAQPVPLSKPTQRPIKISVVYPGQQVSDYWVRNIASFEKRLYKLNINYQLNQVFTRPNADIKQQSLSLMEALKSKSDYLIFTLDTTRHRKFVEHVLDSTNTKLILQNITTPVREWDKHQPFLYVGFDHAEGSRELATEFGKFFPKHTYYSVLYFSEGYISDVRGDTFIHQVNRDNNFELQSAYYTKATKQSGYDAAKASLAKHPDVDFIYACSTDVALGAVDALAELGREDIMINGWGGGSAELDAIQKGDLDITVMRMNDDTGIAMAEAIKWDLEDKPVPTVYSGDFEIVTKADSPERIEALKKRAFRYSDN

The target of this experiment is Autoinducer 2-binding periplasmic protein LuxP (Vibrio harveyi, UniProt P54300). The experiment can be described thus: Antagonist activity at LuxP receptor in Vibrio harveyi MM32 assessed as inhibition of autoinducer-2-mediated quorum sensing after 3 to 4 hrs.

With `O=[N+]([O-])c1cc([N+](=O)[O-])c(O)c(O)c1O`, the IC50 is 3 µM.
